Measurements: patent US20050096250A1, “Cleaning and multifunctional coating composition containing an organosilane quaternary compound and methods of using” (Resource Development L.L.C., priority 2003, published 2005)

Experiment: Comparative Bonding Test on kitchen and bath surfaces
Details: for Comparative Bonding Test Results, H2O2 Alone: 3% hydrogen peroxide alone

OO [Example H2O2, hydrogen peroxide]
Comparative Bonding Test Results, H2O2 Alone (Baked Enamel (Example 14)): Poor (Relatively flat water drops, exhibiting more spread of the water and measuring 50° to 70°) | Comparative Bonding Test Results, H2O2 Alone (Chemically Frosted Glass (Example 17)): Poor (Relatively flat water drops, exhibiting more spread of the water and measuring 50° to 70°) | Comparative Bonding Test Results, H2O2 Alone (Corian (by DuPont) (Example 19)): Poor (Relatively flat water drops, exhibiting more spread of the water and measuring 50° to 70°) | Comparative Bonding Test Results, H2O2 Alone (Formica Counter Top (Example 18)): Poor (Relatively flat water drops, exhibiting more spread of the water and measuring 50° to 70°) | Comparative Bonding Test Results, H2O2 Alone (Glass (Example 22)): Poor (Relatively flat water drops, exhibiting more spread of the water and measuring 50° to 70°) | Comparative Bonding Test Results, H2O2 Alone (Granite Tile (Example 21)): Poor (Relatively flat water drops, exhibiting more spread of the water and measuring 50° to 70°) | Comparative Bonding Test Results, H2O2 Alone (Marble Tile (Example 20)): Poor (Relatively flat water drops, exhibiting more spread of the water and measuring 50° to 70°) | Comparative Bonding Test Results, H2O2 Alone (Smooth Ceramic Tile (Example 15)): Poor (Relatively flat water drops, exhibiting more spread of the water and measuring 50° to 70°) | Comparative Bonding Test Results, H2O2 Alone (Textured Ceramic Tile (Example 16)): Poor (Relatively flat water drops, exhibiting more spread of the water and measuring 50° to 70°) | bonding or durability, H2O2 alone (all surfaces of Examples 14-22, after scrubbing): Poor (Relatively flat water drops, exhibiting more spread of the water and measuring 50° to 70°)
